From US20230265407A1, “HUMAN RECOMBINANT ACE2-FC MUTANTS THAT DECOUPLE ANTI-SARS-COV-2 ACTIVITY FROM CARD[…]” (Northwestern University, priority 2020, published 2023)

System: Ang II
Test: Mass spectrometry analysis of peptides generated from Ang II by ACE2-Fc
Conditions: Ang II peptide as substrate

With “wild-type ACE2-Fc: ectodomain of human ACE2 fused to the N-terminus of Fc domain of human IgG1; forms a dimer” the “generation of Ang 1-7 from Ang II by mass spectrometry” value was “enzymatic cleavage of Ang II and the generation of Ang 1-7”.
